{"source": "paper PMC8812913", "about": "(PLoS Neglected Tropical Diseases, 2022)", "settings": "hamster, in vivo", "data": [{"compound": "CNc1nc(N)nc2c1ncn2C1OC(COP(=O)(NC(C)C(=O)OC(C)C)Oc2ccccc2)C(O)C1(C)F", "note": "(stereo not shown) [AT-752]", "values": [{"measurement": "Mean wt. change", "result": "2.2 ± 0.8", "unit": "g"}]}]}
